Experimental data from patent publication US9206463B2, “Method of testing a disinfectant or antibiotic using phenanthridium derivatives” (Montana State University, priority 2006, dated 2015).

Assays:
Assay type in all cases: cell-based
[1] = test system: Salmonella typhimurium; conditions: after 5 minutes
[2] = test system: Serratia marcescens; conditions: after 5 minutes
[3] = test system: 8 bacterial species; conditions: for staining of dead cells (dye uptake): dead cells from all species examined, data not shown

| Compound | colour of live cells stained with SYTO9/EMA [1] | colour of live cells stained with SYTO9/EMA [2] | staining of dead cells (dye uptake) [3] | penetration of live cells (staining) ([3]; live cells, combined with SYTO9, 50 μM) |
| --- | --- | --- | --- | --- |
| CC[n+]1c(-c2ccccc2)c2cc(N=[N+]=[N-])ccc2c2ccc(N)cc21.[Br-] [EMA] | appeared green after 5 minutes | appeared green after 5 minutes | efficiently stained red | – |
| CC[N+](C)(CC)CCC[n+]1c(-c2ccccc2)c2cc(N=[N+]=[N-])ccc2c2ccc(N)cc21.[Cl-].[Cl-] [PMA] | – | – | efficiently stained red | did not penetrate live cells in any of the species examined |
